{"source": "paper PMC12839305", "about": "(Biomolecules, 2025)", "binders": {"B1": {"name": "LRP1 CL IV-B Mutation B2 (Asp3556Ala/Asp3558Ala/Asp3560Ala) (domain or fragment)", "chain": "MTCGVDEFRCKDSGRCIPARWKCDGEDDCGDGSDEPKEECDERTCEPYQFRCKNNRCVPGRWQCAYANACGDNSDEESCTPRPCSESEFSCANGRCIAGRWKCDGDHDCADGSDEKDCTPRCDMDQFQCKSGHCIPLRWRCDADADCMDGSDEEACGT"}, "B2": {"name": "LRP1 CL IV-B Mutation B3 (Asp3595Ala/Asp3597Ala/Asp3599Ala) (domain or fragment)", "chain": "B1 chain with A65D, A67D, A69D, D104A, D106A, D108A"}}, "target": "RVFV glycoprotein Gn head domain (154–469 aa) (Rift Valley fever virus, UniProt P21401 154-469, biotin (biotinylation kit; for the BLI only))", "assay": "BLI", "note": "Changes are numbered by the printed parent chain."}
{"binder": "B1", "values": [{"measurement": "Kd", "value": 48, "unit": "nM"}]}
{"binder": "B2", "values": [{"measurement": "Kd", "value": 29, "unit": "nM"}]}
